The text below walks through data of publication PMC8780828 (Viruses, 2021).

Protein sequences, listed by entry. Tags and fused reporters are not part of them.
UniProt P10632, whole entry: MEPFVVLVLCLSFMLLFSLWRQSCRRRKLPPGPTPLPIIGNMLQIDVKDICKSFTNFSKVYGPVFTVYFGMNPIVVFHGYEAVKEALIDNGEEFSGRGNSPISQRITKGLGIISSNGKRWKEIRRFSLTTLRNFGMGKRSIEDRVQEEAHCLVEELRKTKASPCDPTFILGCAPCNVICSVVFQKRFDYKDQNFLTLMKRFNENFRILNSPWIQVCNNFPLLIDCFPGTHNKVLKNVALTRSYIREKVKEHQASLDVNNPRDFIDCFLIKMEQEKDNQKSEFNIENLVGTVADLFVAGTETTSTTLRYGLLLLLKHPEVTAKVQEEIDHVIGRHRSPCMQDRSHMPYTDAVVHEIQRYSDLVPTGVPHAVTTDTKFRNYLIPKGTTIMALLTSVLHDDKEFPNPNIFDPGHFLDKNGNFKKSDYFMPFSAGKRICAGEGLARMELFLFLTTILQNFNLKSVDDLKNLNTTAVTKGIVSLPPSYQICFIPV

The series concerns the target CYP2C8 (Homo sapiens, UniProt P10632). Nature of the series: in vitro. As to conditions: microsomes, pH 7.4.

As to `O=C(O)c1cc(-c2ccc(/C=C3\SC(=S)N(CCc4ccccc4)C3=O)o2)ccc1Cl` [NBCoV1], the activity at 0.37 µM was 87.8%.
